Values from PubChem BioAssay AID624099 (ICCB-Longwood, 2012)

Aim: 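Human genes that papillomavirus E2 requires to repress the HPV18 LCR promoter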 (primary screen)
Cell system: human C33A cervical carcinoma cells (HPV-negative) stably expressing BPV1 E2 and an HPV18 LCR luciferase reporter
Reagents: siRNA pool against human genes, 40 nM
Duration: 72 h
Detection: 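HPV18 LCR reporter light per well, converted to plate-wise z-scores that exclude control wells, and averaged over triplicate plates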
Direction: mean z-score and z-score: higher = stronger reporter signal, weaker E2 silencing
Active means: 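Hit if mean z-score reaches 2 and two or more of three replicate z-scores also reach 2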
The deposit covers about 21,000 reagents; shown is an unselected part. Of all reagents, 497 (2.4%) got an active call. 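Higher z means weaker E2 silencing; only reporter increases were scored, and knock-downs that hurt cell survival may mask genuine repressor factors.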 The numbers tell different reagents against one gene apart. Reagent sequences are not shown.

Gene	reagent	mean z-score	z-score, replicate A	z-score, replicate B	z-score, replicate C	activity call
DKK1	1	1.64	1.37	1.86	1.7	inactive
FLJ31958 (retired record)	1	1.07	1.07	1	1.15	inactive
FMOD	1	-1.41	-0.85	-1.49	-1.88	inactive
LINC02481	1	-0.18	-0.05	-0.52	0.04	inactive
GABRB3	1	0.47	0.61	0.66	0.15	inactive
DSE	1	-0.52	-0.19	-0.7	-0.65	inactive
ZMYND12	1	-0.6	-0.47	-0.7	-0.62	inactive
HP1BP3	1	0.27	-0.26	0.59	0.49	inactive
THAP2	1	-0.85	-0.9	-0.76	-0.88	inactive
ZNF224	1	-0.26	-0.34	-0.19	-0.27	inactive
HMCN1	1	0.05	-0.24	0.3	0.08	inactive
IL17D	1	0.7	0.81	0.79	0.49	inactive
AGBL3	1	1.49	1.34	1.27	1.87	inactive
ANKRD50	1	-0.18	-0.14	-0.47	0.08	inactive
LOC199897 (retired record)	1	0.04	-0.01	0.04	0.09	inactive
SMIM26	1	0.6	0.29	0.58	0.93	inactive
FAT3	1	0.52	0.78	0.48	0.31	inactive
FAT3	2	1.98	1.84	1.61	2.5	inactive
LINC00207	1	0.16	0.15	0.01	0.32	inactive
EPHX2	1	-1.03	-0.65	-1.29	-1.16	inactive

As entered above.
Entry for LINC02481 in “z-score, replicate C”: 0.04
ZNF224, z-score, replicate A → -0.34
Entry of ZMYND12 in “z-score, replicate B”: -0.7
Entry for FAT3 #2 in “z-score, replicate A”: 1.84
DKK1, z-score, replicate C: 1.7
DSE, activity call → inactive

Additional records follow:
Gene	reagent	mean z-score	z-score, replicate A	z-score, replicate B	z-score, replicate C	activity call
PBDC1	1	-1.01	-0.68	-0.94	-1.4	inactive
UBTFL3	1	-0.78	-0.8	-0.81	-0.74	inactive
KIF16B	1	-0.72	-0.9	-0.5	-0.75	inactive
CPB1	1	-1.5	-1.63	-1.5	-1.38	inactive
SPATA31A7	1	0.04	-0.26	0.31	0.07	inactive
UCHL3	1	1	0.87	1.37	0.76	inactive
LTB	1	0.4	0.38	0.58	0.23	inactive
LIPT1	1	0.09	0.13	0.22	-0.09	inactive
CCDC178	1	1.24	1.12	1.16	1.44	inactive
CIB3	1	-0.89	-0.87	-0.65	-1.16	inactive
FANCM	1	0.56	-0.17	2.29	-0.45	inactive
LOC392314 (retired record)	1	-0.93	-0.68	-0.98	-1.13	inactive
HMX2	1	-0.93	-0.94	-0.84	-0.99	inactive
ZNF663P	1	1.26	1.38	1.25	1.14	inactive
CCDC197	1	-0.25	-0.31	-0.11	-0.34	inactive
UQCR11	1	-0.07	-0.05	-0.05	-0.1	inactive
UBR5	1	0.65	0.82	0.55	0.57	inactive
PLCB2	1	-0.05	-0.11	0.07	-0.13	inactive
VCX3B	1	-0.68	-0.39	-0.85	-0.8	inactive
IFI30	1	-0.22	0.42	-0.41	-0.67	inactive
ZSWIM3	1	-0.52	-0.63	-0.78	-0.16	inactive
FMC1	1	-2.1	-2.15	-2.02	-2.15	inactive
EWSR1	1	-1.55	-1.16	-1.67	-1.83	inactive
GNPDA2	1	0.87	1.2	0.52	0.88	inactive
ZCCHC4	1	-0.22	-0.64	-0.38	0.34	inactive
TTC13	1	-0.06	-0.74	0.15	0.41	inactive
ZDHHC16	1	3.51	3.23	3.86	3.43	active
ZNF584	1	-1.87	-2.06	-1.69	-1.84	inactive
POLR1B	1	0.48	0.51	0.12	0.81	inactive
COMMD8	1	-0.91	-0.99	-0.72	-1.02	inactive
LRRC57	1	0.68	0.91	0.41	0.71	inactive
CCDC3	1	-0.41	-0.36	-0.43	-0.43	inactive
RASGRF1	1	-0.92	-1	-0.73	-1.02	inactive
ZNF300	1	0.33	0.37	0.67	-0.06	inactive
LIMD2	1	-0.56	-0.98	-0.54	-0.14	inactive
CCNB1IP1	1	-1.36	-1.29	-1.38	-1.4	inactive
DDX41	1	-0.33	-0.15	-0.59	-0.24	inactive
